Pooled drug test results. Numbers come from NIAID ChemDB, via PubChem.

Common to all: cytotoxicity tests; measure: CC50

CCn: concentration that lowers growth or viability of the cells by n%. Conditions beyond the fields shown may differ between rows.

SMILES,cells,value
Cc1cn([C@@H]2O[C@H](CO)[C@@H](O)[C@@H]2O)c(=O)[nH]c1=O,C1271,95 µM
Nc1nccc2c1ncn2[C@@H]1CC[C@@H](O)[C@H]1O,L929,27.4 µM
Cn1c(O)c(N=NC(N)=S)c2ccccc21,LLC-MK2,>100 µg/mL
CSc1nsc(-c2ccc(OCc3ccccc3)cc2)c1C#N,HEP-2/L-929/VERO,>50 µM
Nc1ncnc2c1ncn2[C@@H]1C[C@H](CO)[C@@H](O)[C@H]1O,PRK,4 µg/mL
Nc1ncnc2c1nc(Br)n2[C@@H]1O[C@H](CO)[C@@H](O)[C@H]1O,C1271,68 µM
Cc1c(OCC(C)C)ccc2c1c(=O)cc(-c1ccccc1)n2C,HeLa S3,>5 µg/mL
Cc1cn([C@H]2C[C@H](O)[C@]3(CO)C[C@H]23)c(=O)[nH]c1=O,HFF,>100 µg/mL
CS/C(N)=N\N=C(/C)c1ccc(Cl)cc1,Chorioallantoic membrane,354.2 µg/mL
Nc1ncnc2c1ncn2[C@@H]1O[C@H](CO)[C@@H](O)[C@@H]1O,C1271,55 µM
CSc1noc(-c2ccc(OCCOc3ccccc3)cc2)c1C#N,HEP-2,>25 µM
C[C@H](NC(=O)OCc1ccccc1)C(=O)NC(CCC(=O)N(C)C)C(=O)CF,VERO,>100 µM
Nc1nccc2c1ncn2[C@@H]1C=C(CO)[C@@H](O)[C@H]1O,LLC-MK2,>100 µg/mL
Cc1c(-c2ccccc2)n(C)c2ccc(NCC(C)C)cc2c1=O,HeLa S3,>5 µg/mL
Nc1ncnc2c1ncn2[C@@H]1C[C@H](COP(=O)(O)O)[C@@H](O)[C@H]1O,PRK,>400 µg/mL
CSc1nsc(-c2ccc(OCCCCOc3ccc(C#N)cc3)cc2)c1C#N,HEP-2/L-929/VERO,2 µM
Cn1cc(C(=O)NCc2ccc(Cl)cc2)c(=O)c2cc(CN3CCOCC3)ccc21,HFF,>100 µM
Cc1cc(C)nc(NS(=O)(=O)c2ccc(N=C3C(=O)Nc4ccc(Br)cc43)cc2)n1,HFF,>300 µM
Nc1nc(=O)n([C@@H]2C=C(CO)[C@@H](O)[C@H]2O)cc1F,MK2,70 µg/mL
COC(OC)c1cn([C@H]2C[C@H](O)[C@@H](CO)O2)c(=O)[nH]c1=O,HFF,>300 µM
[N-]=C=Nc1nncs1,CEF,>32 µg/mL
C#Cc1nc2c(ncn2[C@@H]2O[C@H](CO)[C@@H](O)[C@H]2O)c(=O)[nH]1,HFF,66.5 µg/mL
COc1ccc2cc1Oc1ccc(cc1)CC1c3cc(c(OC)cc3CCN1C)Oc1c(OC)c(OC)c(OC)c3c1C(C2)N(C)CC3,CEF,72 µM
CSc1noc(-c2ccc(OCCCc3ccccc3)cc2)c1C#N,HEP-2,>25 µM
NC12CC3CC(CC(C3)C1)C2,Chorioallantoic membrane,1000 µg/mL
CC(C)[C@H](NC(=O)OCc1ccccc1)C(=O)NC(CCC(=O)N(C)C)C(=O)CF,VERO,>100 µM
CCCCCCCCCCCCCCCCOCCCOP(=O)(O)COCCn1cnc2c(=O)[nH]c(N)nc21,HFF,>102 µM
N#Cc1c(Cl)nsc1Cl,HEP-2,4 µM
CSc1nsc(-c2ccc(OCCCOc3ccc([N+](=O)[O-])cc3)cc2)c1C#N,HEP-2/L-929/VERO,0.5 µM
CSc1nsc(-c2ccc(OCc3ccccc3)cc2)c1C#N,HEP-2,>50 µM
CCn1c(-c2ccccn2)cc(=O)c2cc(C(C)C)ccc21,HeLa S3,>100 µg/mL
S=c1cc(-c2ccc(Cl)cc2)s[nH]1,HEP-2,87.5 µM
Cc1cc(C)nc(NS(=O)(=O)c2ccc(N=C3C(=O)N(C(=O)c4ccccc4)c4ccccc43)cc2)n1,HFF,>300 µM
CSc1nsc(-c2ccc(OCCCCOc3ccc([N+](=O)[O-])cc3)cc2)c1C#N,HEP-2/L-929/VERO,0.5 µM
Nc1ncnc2c1ncn2[C@@H]1O[C@H](CCO)[C@@H](O)[C@H]1O,VERO 76,>100 µg/mL
c1ccc(-c2cc(SSc3cc(-c4ccccc4)sn3)ns2)cc1,HEP-2,89.28 µM
Cc1cc(C)nc(NS(=O)(=O)c2ccc(N=C3C(=O)Nc4ccc(Cl)cc43)cc2)n1,HFF,>300 µM
CSc1noc(-c2ccc(OCCOc3ccc(Br)cc3)cc2)c1C#N,HEP-2,>25 µM
N=C(N)CCNC(=O)c1c[nH]c(NC(=O)c2c[nH]c(NC(=O)CC(=O)Nc3c[nH]c(C(=O)Nc4c[nH]c(C(=O)NCCC(=N)N)c4)c3)c2)c1,PRK,≥10 µg/mL
CS\C(N)=N/N=C(C)/C=C/c1ccc(Cl)cc1,Chorioallantoic membrane,710 µg/mL
O=c1[nH]c(=O)n([C@@H]2O[C@H](CO)[C@@H](O)[C@@H]2F)cc1I,C1271,4.7 µM
Nc1ccn(C[C@@H](CO)OCP(=O)(O)O)c(=O)n1,LLC-MK2,>100 µg/mL
C[C@]1(CO)O[C@@H](n2ccc(N)nc2=O)[C@H](O)[C@@H]1O,HepG2.2.15,>100 µM
Nc1ncnc2c1ncn2C[C@@H](CO)OCP(=O)(O)O,LLC-MK2,>100 µg/mL
Oc1cccc(O)c1-c1c2nc(c(-c3c(O)cccc3O)c3ccc([nH]3)c(-c3c(O)cccc3O)c3nc(c(-c4c(O)cccc4O)c4ccc1[nH]4)C=C3)C=C2,CV-1,50 µg/mL

3 of the rows above, restated:

SMILES	cells	value
Nc1ncnc2c1ncn2[C@@H]1O[C@H](CCO)[C@@H](O)[C@H]1O	VERO 76	>100 µg/mL
C[C@H](NC(=O)OCc1ccccc1)C(=O)NC(CCC(=O)N(C)C)C(=O)CF	VERO	>100 µM
Nc1ccn(C[C@@H](CO)OCP(=O)(O)O)c(=O)n1	LLC-MK2	>100 µg/mL